From patent US20240109955A1 (published 2024)

How the values were obtained:
Test in all cases: cell-based or functional assay
[1] = molecular target: SARS-CoV-2 spike protein, Delta variant (B.1.617.2) (SARS-CoV-2, UniProt P0DTC2 14-1273)
[2] = molecular target: SARS-CoV-2 spike protein, Omicron sublineage BA.4/5 (SARS-CoV-2, UniProt P0DTC2 14-1273)
[3] = molecular target: SARS-CoV-2 spike (S) protein, Delta variant B.1.617.2 (SARS-CoV-2, UniProt P0DTC2 14-1273)
[4] = molecular target: SARS-CoV-2 spike (S) protein, Omicron sublineage BA.4/5 (SARS-CoV-2, UniProt P0DTC2 14-1273)

B1: MX829 (bispecific antibody)
chain: DIQMTQSPSSVSASVGDRVIITCRASQGISSWLAWYQQKPGKAPKVLIYDASSLQSGVPSRFSGSGYGTDFTLTISSLQPEDSATYYCQQAKSFPITFGQGTRLEIKGGSSGEIVLTQSPGTLSLSPGERATLSCRASQSVSSSYLAWYQQKPGQAPRLLIYSASSRATGIPDRFSGSGSGTDFTLTISRLEPEDFAVYFCQQYVGLTGWTFGQGTKVEIKGGGGSGGSGSGGGGSASGSGQMQLVQSGPEVKKPGTSVKVSCKASGFTFTSSAVQWVRQRQRLEWIGWIVVGSGNTNYAQKFQERVTITRDMSTSTAYMELSSLRSEDTAVYYCAAPNCSNVVCYDGFDIWGQGTMVTVSSGGSSGQVQLVESGGGVVQPGRSLRLSCAASGFTFSSYAFHWVRQAPGKGLEWVAVISYDGSNQYYADSVKGRFTISRDNSKNTLYLQMNSLRADDTAVYYCARDLAIAVAGTWHYYNGMDVWGQGTTVTVSSASGGSGDKTHTCPPCPAPELLGGPSVFLFPPKPKDTLMISRTPEVTCVVVDVSHEDPEVKFNWYVDGVEVHNAKTKPREEQYNSYVVSVLTVLHQDWLNGKEYKCKVSNKALPAPIEKTISKAKGQPREPQVYTLPPSRDELTKNQVSLTCLVKGFYPSDIAVEWESNGQPENNYKTTPPVLDSDGSFFKKLTVDKSRWQQGNVFSCSVLHEALHSHYTQKSLSLSPG
IC50, pseudovirus neutralization [1]: 29.6 nM | IC80, pseudovirus neutralization [1]: 97.8 nM | IC50, pseudovirus neutralization [2]: 11.5 nM | IC80, pseudovirus neutralization [2]: 34.7 nM

B2: MX830 (bispecific antibody)
chain: QTVVTQEPSFSVSPGGTVTLTCGLSSGSVSTAYFPSWYQQTPGQAPRTLIYGTNTRSSGVPDRFSGSILGNKAALTITGAQADDESDYYCVLYMGRGIVVFGGGTKLTVLGGSSGEIVLTQSPGTLSLSPGERATLSCRASQSVSSSYLAWYQQKPGQAPRLLIYSASSRATGIPDRFSGSGSGTDFTLTISRLEPEDFAVYFCQQYGGLTGWTFGQGTKVEIKGGGGSGGSGSGGGGSASGSGQMQLVQSGPEVKKPGTSVKVSCKASGFTFTSSAVQWVRQRQRLEWIGWIVVGSGNTNYAQKFQERVTITRDMSTSTAYMELSSLRSEDTAVYYCAAPNCSNVVCYDGFDIWGQGTMVTVSSGGSSGQVQLVESGGGVVQPGRSLRLSCAASGFTLSSYGMHWVRQAPGKGLEWVAVISYDGSNKYYVDSVKGRFTISRDNSKNTLYLQMNSLRAEDTAVYYCRWAYWELLPDYYYGMDVWGQGTTVTVSSASGGSGDKTHTCPPCPAPELLGGPSVFLFPPKPKDTLMISRTPEVTCVVVDVSHEDPEVKFNWYVDGVEVHNAKTKPREEQYNSYVVSVLTVLHQDWLNGKEYKCKVSNKALPAPIEKTISKAKGQPREPQVYTLPPSRDELTKNQVSLTCLVKGFYPSDIAVEWESNGQPENNYKTTPPVLDSDGSFFKKLTVDKSRWQQGNVFSCSVLHEALHSHYTQKSLSLSPG
IC50, pseudovirus neutralization [1]: 63.7 nM | IC80, pseudovirus neutralization [1]: 125 nM | IC50, pseudovirus neutralization [2]: 533 nM | IC80, pseudovirus neutralization [2]: 4630 nM

B3: MX831 (bispecific antibody)
chain: DIQMTQSPSSVSASVGDRVIITCRASQGISSWLAWYQQKPGKAPKVLIYDASSLQSGVPSRFSGSGYGTDFTLTISSLQPEDSATYYCQQAKSFPITFGQGTRLEIKGGSSGEIVLTQSPGTLSLSPGERATLSCRASQSVSSSYLAWYQQKPGQAPRLLIYSASSRATGIPDRFSGSGSGTDFTLTISRLEPEDFAVYFCQQYGGLTGWTFGQGTKVEIKGGGGSGGSGSGGGGSASGSGQMQLVQSGPEVKKPGTSVKVSCKASGFTFTSSAVQWVRQRQRLEWIGWIVVGSGNTNYAQKFQERVTITRDMSTSTAYMELSSLRSEDTAVYYCAAPNCSNVVCYDGFDIWGQGTMVTVSSGGSSGQVQLVESGGGVVQPGRSLRLSCAASGFTFSSYAFHWVRQAPGKGLEWVAVISYDGSNQYYADSVKGRFTISRDNSKNTLYLQMNSLRADDTAVYYCARDLAIAVAGTWHYYNGMDVWGQGTTVTVSSASGGSGDKTHTCPPCPAPELLGGPSVFLFPPKPKDTLMISRTPEVTCVVVDVSHEDPEVKFNWYVDGVEVHNAKTKPREEQYNSYVVSVLTVLHQDWLNGKEYKCKVSNKALPAPIEKTISKAKGQPREPQVYTLPPSRDELTKNQVSLTCLVKGFYPSDIAVEWESNGQPENNYKTTPPVLDSDGSFFKKLTVDKSRWQQGNVFSCSVLHEALHSHYTQKSLSLSPG
IC50, pseudovirus neutralization [1]: 29.2 nM | IC80, pseudovirus neutralization [1]: 84 nM | IC50, pseudovirus neutralization [2]: 25.3 nM | IC80, pseudovirus neutralization [2]: 47 nM

B4: A23-58.1HC/58.1LC_93VGLTG (antibody, V domains shown)
VH: QMQLVQSGPEVKKPGTSVKVSCKASGFTFTSSAVQWVRQRQRLEWIGWIVVGSGNTNYAQKFQERVTITRDMSTSTAYMELSSLRSEDTAVYYCAAPNCSNVVCYDGFDIWGQGTMVTVSS
VL: EIVLTQSPGTLSLSPGERATLSCRASQSVSSSYLAWYQQKPGQAPRLLIYSASSRATGIPDRFSGSGSGTDFTLTISRLEPEDFAVYFCQQYVGLTGWTFGQGTKVEIK
IC50, pseudovirus neutralization [1]: 5.8 nM | IC80, pseudovirus neutralization [1]: 12.4 nM | IC50, pseudovirus neutralization [2]: 3 nM | IC80, pseudovirus neutralization [2]: 13.7 nM

B5: MX834 (other)
chain 1: QTVVTQEPSFSVSPGGTVTLTCGLSSGSVSTAYFPSWYQQTPGQAPRTLIYGTNTRSSGVPDRFSGSILGNKAALTITGAQADDESDYYCVLYMGRGIVVFGGGTKLTVLGGSSGEIVLTQSPGTLSLSPGERATLSCRASQSVSSSYLAWYQQKPGQAPRLLIYSASSRATGIPDRFSGSGSGTDFTLTISRLEPEDFAVYFCQQYVGLTGWTFGQGTKVEIKGGGGSGGSGSGGGGSASGSGQMQLVQSGPEVKKPGTSVKVSCKASGFTFTSSAVQWVRQRQRLEWIGWIVVGSGNTNYAQKFQERVTITRDMSTSTAYMELSSLRSEDTAVYYCAAPNCSNVVCYDGFDIWGQGTMVTVSSGGSSGQVQLVESGGGVVQPGRSLRLSCAASGFTLSSYGMHWVRQAPGKGLEWVAVISYDGSNKYYVDSVKGRFTISRDNSKNTLYLQMNSLRAEDTAVYYCRWAYWELLPDYYYGMDVWGQGTTVTVSSASGGSGDKTHTCPPCPAPELLGGPSVFLFPPKPKDTLMISRTPEVTCVVVDVSHEDPEVKFNWYVDGVEVHNAKTKPREEQYNSYVVSVLTVLHQDWLNGKEYKCKVSNKALPAPIEKTISKAKGQPREPQVYTLPPCRDELTKNQVSLWCLVKGFYPSDIAVEWESNGQPENNYKTTPPVLDSDGSFFKKLTVDKSRWQQGNVFSCSVLHEALHSHYTQKSLSLSPG
chain 2: QTVVTQEPSFSVSPGGTVTLTCGLSSGSVSTAYFPSWYQQTPGQAPRTLIYGTNTRSSGVPDRFSGSILGNKAALTITGAQADDESDYYCVLYMGRGIVVFGGGTKLTVLGGSSGEIVLTQSPGTLSLSPGERATLSCRASQSVSSSYLAWYQQKPGQAPRLLIYSASSRATGIPDRFSGSGSGTDFTLTISRLEPEDFAVYFCQQYVGLTGWTFGQGTKVEIKGGGGSGGSGSGGGGSASGSGQMQLVQSGPEVKKPGTSVKVSCKASGFTFTSSAVQWVRQRQRLEWIGWIVVGSGNTNYAQKFQERVTITRDMSTSTAYMELSSLRSEDTAVYYCAAPNCSNVVCYDGFDIWGQGTMVTVSSGGSSGQVQLVESGGGVVQPGRSLRLSCAASGFTLSSYGMHWVRQAPGKGLEWVAVISYDGSNKYYVDSVKGRFTISRDNSKNTLYLQMNSLRAEDTAVYYCRWAYWELLPDYYYGMDVWGQGTTVTVSSASGGSGDKTHTCPPCPAPELLGGPSVFLFPPKPKDTLMISRTPEVTCVVVDVSHEDPEVKFNWYVDGVEVHNAKTKPREEQYNSYVVSVLTVLHQDWLNGKEYKCKVSNKALPAPIEKTISKAKGQPREPQVYTLPPCRDELTKNQVSLWCLVKGFYPSDIAVEWESNGQPENNYKTTPPVLDSDGSFFKKLTVDKSRWQQGNVFSCSVLHEALHSHYTQKSLSLSPG
IC50, pseudovirus neutralization [3]: 7.32 nM | IC80, pseudovirus neutralization [3]: 11.3 nM | IC50, pseudovirus neutralization [4]: 12.5 nM | IC80, pseudovirus neutralization [4]: 29.9 nM
